Anti-infective test results gathered from many reports (values: NIAID ChemDB through PubChem).

Common to all: whole-cell or culture tests; species: HIV-1; measure: EC50

Lines come from different laboratories, so protocols vary. ECn is the concentration giving n% inhibition of infection, replication or growth.

Cc1cc(C)cc(S(=O)(=O)c2c(C(=O)NS(=O)(=O)C(F)(F)F)[nH]c3ccc(Cl)cc23)c1 ; mutations: E138K ; cell line: MT-4 ; read by: MTT ; result: 3.78 µM
O=C1CC(C#CC2CC2)(C(F)(F)F)c2cc(Cl)ccc2N1 ; strain: RF ; cell line: MT-2 ; result: <0.014 µM
CCc1c(Cc2ccc3ccccc3c2)n(COCCO)c(=O)[nH]c1=O ; strain: LAV ; cell line: CEM ; result: >56.5 µM
COc1ccc2ccc3c(c2c1)OC1(CCN(Cc2ccc(C#N)cc2)CC1)NC3=O ; strain: IIIB ; cell line: MOLT-4 ; read by: ELISA ; result: 5.7 µM
Cc1ccc(/C=C2\C(=O)Nc3ccc(S(=O)(=O)N(CC(C)C)C[C@@H](O)[C@H](Cc4ccccc4)NC(=O)O[C@H]4CO[C@H]5OCC[C@H]54)cc32)s1 ; mutations: PR-L10F M46I M71V I84V ; strain: F ; cell line: MT-4 ; read by: cytopathic effect / MTT ; result: 0.088 µM
O=C1Nc2ccc(Cl)cc2[C@@](C#CC2CC2)(C(F)(F)F)[C@H]1OCc1ccccn1 ; strain: RF ; cell line: MT-2 ; result: <0.14 µM
Cc1nn(C(C)C)c(Sc2cc(Cl)cc(Cl)c2)c1Cc1ccncn1 ; strain: HXB2 ; cell line: MT-4 + MT4 ; read by: cytopathic effect / MTT ; result: 0.013 µM
CCN(CC)c1ccc(/C=C2\C(=O)Nc3ccc(S(=O)(=O)N(CC(C)C)C[C@@H](O)[C@H](Cc4ccccc4)NC(=O)O[C@H]4CO[C@H]5OCC[C@H]54)cc32)cc1O ; strain: LAI ; cell line: MT-4 ; read by: cytopathic effect / MTT ; result: 0.065 µM
CCOC(=O)N[C@@H](Cc1ccccc1)[C@H](O)CN(CC(C)C)S(=O)(=O)c1ccc(F)cc1 ; strain: IIIB ; cell line: CEM ; read by: p24 ; result: <10 µM
CCCS(=O)(=O)NC(=O)c1[nH]c2ccc(Cl)cc2c1S(=O)(=O)c1cc(C)cc(C)c1 ; mutations: L100I ; cell line: MT-4 ; read by: MTT ; result: 1.41 µM
COCn1c(Cc2cccc3ccccc23)c(C(C)C)c(=O)[nH]c1=O ; strain: LAV ; cell line: CEM ; result: 0.13 µM
CC(C)CN(C[C@@H](O)[C@H](Cc1ccccc1)NC(=O)O[C@H]1CO[C@H]2OCC[C@H]21)S(=O)(=O)c1ccc2c(c1)/C(=C/c1ccc(N(C)C)cc1)C(=O)N2 ; strain: LAI ; cell line: MT-4 ; read by: cytopathic effect / MTT ; result: 0.044 µM
COc1cc2oc(=O)c3c(O)ccc(O)c3c2c(OC)c1OC ; cell line: C8166 ; read by: MTT ; result: 20.33 µM
CCc1c(Sc2ccccc2)n(COCc2ccccc2)c(=O)[nH]c1=O ; strain: IIIB ; cell line: PBL ; read by: p24 ; result: 0.0072 µM
O=c1c(CCc2ccc(F)cc2)c(-c2ccc(C(F)(F)F)cc2)[nH]n1-c1cc(C(F)(F)F)[nH]n1 ; strain: NL4-3 ; cell line: PBMC ; read by: p24 / ELISA ; result: ≤0.01 µM
CC(C)CN(C[C@@H](O)[C@H](Cc1ccccc1)NC(=O)O[C@H]1CO[C@H]2OCC[C@H]21)S(=O)(=O)c1ccc2c(c1)/C(=C/c1cccn1C)C(=O)N2 ; mutations: PR-L10F M46I M71V I84V ; strain: F ; cell line: MT-4 ; read by: cytopathic effect / MTT ; result: 0.032 µM
Cc1cc(C)cc(S(=O)(=O)c2c(C(=O)NCCn3ccc(=O)[nH]c3=O)[nH]c3ccc(Cl)cc23)c1 ; strain: IIIB ; cell line: MT-4 ; read by: MTT ; result: 0.0096 µM
COc1cc2c(OC3OC(C)C(OC4OC(CO)C(O)C(O)C4O)C(O)C3OC(C)=O)c3c(c(-c4ccc5c(c4)OCO5)c2cc1OC)C(=O)OC3 ; strain: LAV ; cell line: PBMC ; read by: p24 / ELISA ; result: 0.641 µM
CC(C)c1c(Cc2cccc3ccccc23)n(COCc2ccccc2)c(=O)[nH]c1=O ; strain: LAV ; cell line: CEM ; result: 0.048 µM
Cc1cc(C)cc(S(=O)(=O)c2c(C(=O)NS(=O)(=O)c3ccc(F)cc3F)[nH]c3ccc(Cl)cc23)c1 ; mutations: F227L + V106A ; cell line: MT-4 ; read by: MTT ; result: 7.4 µM
CC(C)CN(C[C@@H](O)[C@H](Cc1ccccc1)NC(=O)[C@@H](N1CCN(Cc2cccnc2)C1=O)C(C)(C)C)S(=O)(=O)c1ccc(/C=N/O)cc1 ; cell line: MT-4 ; read by: cytopathic effect / MTT ; result: 0.001 µM
COc1cccc(CN(C(=O)OC(C)(C)C)c2cccc(-c3ccc4ccn(Cc5cccc(C(=O)O)c5)c4c3)c2)c1 ; strain: HXB2 ; cell line: TZM-bl + HL2/3 ; read by: cell fusion / luminescence ; result: 4.2 µM
CC(C)CN(C[C@@H](O)[C@H](Cc1ccccc1)NC(=O)O[C@H]1CO[C@H]2OCC[C@H]21)S(=O)(=O)c1ccc2c(c1)/C(=C/c1ccco1)C(=O)N2 ; mutations: PR-L10F M46I M71V I84V ; strain: F ; cell line: MT-4 ; read by: cytopathic effect / MTT ; result: 0.038 µM
Cc1cc(C)cc(S(=O)(=O)c2c(C(=O)NS(=O)(=O)c3ccc(F)cc3)[nH]c3ccc(Cl)cc23)c1 ; strain: RES056 ; cell line: MT-4 ; read by: MTT ; result: >121 µM
Nc1ccc(CO[C@H]2C(=O)Nc3ccc(Cl)cc3[C@@]2(C#CC2CC2)C(F)(F)F)cc1F ; strain: RF ; cell line: MT-2 ; result: <0.026 µM
COc1ccccc1/C=C1\C(=O)Nc2ccc(S(=O)(=O)N(CC(C)C)C[C@@H](O)[C@H](Cc3ccccc3)NC(=O)O[C@H]3CO[C@H]4OCC[C@H]43)cc21 ; strain: LAI ; cell line: MT-4 ; read by: cytopathic effect / MTT ; result: 0.078 µM
C[C@]1(CO)O[C@@H](n2cnc3c(N)ncnc32)C[C@@H]1O ; mutations: (delta)Env ; cell line: HOS ; read by: luciferase ; result: 0.063 µM
COCn1c(Cc2ccc3ccccc3c2)c(C)c(=O)[nH]c1=O ; strain: LAV ; cell line: CEM ; result: 25.8 µM
CCCOC(=O)N[C@@H](Cc1ccccc1)[C@H](O)CN(CC(C)C)S(=O)(=O)c1ccc(Cl)c(Cl)c1 ; strain: IIIB ; cell line: CEM ; read by: p24 ; result: <10 µM
CCOCn1c(Cc2cccc3ccccc23)c(C)c(=O)[nH]c1=O ; strain: LAV ; cell line: MT-4 ; result: 0.225 µM
CC(C)(C)OC(=O)N1CCC(CCc2c(-c3ccc(C(F)(F)F)cc3)[nH]n(-c3nc4ccccc4[nH]3)c2=O)CC1 ; strain: NL4-3 ; cell line: PBMC ; read by: p24 / ELISA ; result: <1 µM
COc1ccnc2[nH]cc(C(=O)C(=O)N3CCN(C(=O)c4ccccc4)C[C@H]3C)c12 ; strain: ADA ; cell line: Cf2Th-CD4+ CCR5+ ; read by: luciferase ; result: 0.008 µM
C=C1CN(S(=O)(=O)c2ccc(C)cc2)CCCN(Cc2ccccc2)CCCN(S(=O)(=O)c2ccc(C)cc2)C1 ; strain: BaL ; cell line: Monocytes/macrophages ; read by: p24 ; result: 0.96 µM
CC(C)CN(C[C@@H](O)[C@H](Cc1ccccc1)NC(=O)OCC1CCOC1)S(=O)(=O)c1ccc(Cl)c(Cl)c1 ; strain: IIIB ; cell line: CEM ; read by: p24 ; result: <10 µM
CC(C)(C)OC(=O)c1cccc(Cn2ccc3ccc(-c4ccc5ccn(Cc6cccc(C(=O)O)c6)c5c4)cc32)c1 ; strain: HXB2 ; cell line: TZM-bl + HL2/3 ; read by: cell fusion / luminescence ; result: 0.2 µM
CCC(C)[C@@H](C(=O)N[C@@H](Cc1ccccc1)[C@H](O)CN(CC(C)C)S(=O)(=O)c1ccc(/C=N/O)cc1)N1CCN(Cc2cccnc2C)C1=O ; mutations: PR-L10F V32I M46I I47V Q68E I84V ; strain: A17 (LPV-resistant) ; cell line: MT-4 ; read by: cytopathic effect / MTT ; result: 0.019 µM
CCN1c2nc(C(F)(F)F)ccc2NC(=O)c2cc(CCOc3cc[n+]([O-])c4ccccc34)cnc21 ; mutations: RT-Y188L ; cell line: C8166 ; read by: p24 ; result: 0.065 µM
CC(C)CN(C[C@@H](O)[C@H](Cc1ccccc1)NC(=O)O[C@H]1CCOC1)S(=O)(=O)c1ccc2nonc2c1 ; strain: IIIB ; cell line: CEM ; read by: p24 ; result: <1 µM
CCC(C)[C@@H](C(=O)N[C@@H](Cc1ccccc1)[C@H](O)CN(CC1CCCC1)S(=O)(=O)c1ccc(/C=N/O)cc1)N1CCN(Cc2cccnc2)C1=O ; conditions: 50% human serum ; cell line: MT-4 ; read by: cytopathic effect / MTT ; result: 0.011 µM
CCCc1c(Sc2ccccc2)n(COCCO)c(=O)[nH]c1=O ; strain: IIIB ; cell line: MT-4 ; read by: cytopathic effect / MTT ; result: 3.6 µM
Cc1c(Cc2cccc3ccccc23)n(COCCO)c(=O)[nH]c1=O ; strain: LAV ; cell line: MT-4 ; result: 0.5 µM
CC(C)CN(C[C@@H](O)[C@H](Cc1ccccc1)NC(=O)O[C@@H]1CCOC1)S(=O)(=O)c1ccc([N+](=O)[O-])cc1 ; strain: IIIB ; cell line: CEM ; read by: p24 ; result: <1 µM
Cc1ccc(/C=C2\C(=O)Nc3ccc(S(=O)(=O)N(CC(C)C)C[C@@H](O)[C@H](Cc4ccccc4)NC(=O)O[C@H]4CO[C@H]5OCC[C@H]54)cc32)o1 ; strain: LAI ; cell line: MT-4 ; read by: cytopathic effect / MTT ; result: 0.009 µM
O=C1Nc2ccc(Cl)cc2[C@@](C#CC2CC2)(C(F)(F)F)O1 ; mutations: N348I ; strain: 94ug114.1.6 ; cell line: HEK293T ; read by: luciferase ; result: 15.88 nM
CC(C)CN(C[C@@H](O)[C@H](Cc1ccccc1)NC(=O)O[C@@H]1CCOC1)S(=O)(=O)c1ccoc1 ; strain: IIIB ; cell line: CEM ; read by: p24 ; result: <1 µM
C/C=C/CSc1cc(NC(=S)c2ccsc2C)ccc1Cl ; mutations: RT-D67N K70R L100I T215Y K219Q ; strain: 4XAZT+L100I (RT D67N K70R L100I T215Y K219Q) ; cell line: CEM + CEM-SS ; read by: p24 ; result: 1 µM
O=C1Nc2ccc(Cl)cc2[C@@](C#CC2CC2)(C(F)(F)F)[C@H]1NCc1ccccc1 ; strain: RF ; cell line: MT-2 ; result: <0.218 µM
COCc1cccc(CN2CCN([C@H](C(=O)N[C@@H](Cc3ccccc3)[C@H](O)CN(CC(C)C)S(=O)(=O)c3ccc(/C=N/O)cc3)C(C)(C)C)C2=O)n1 ; mutations: PR-L10F V32I M46I I47V Q68E I84V ; strain: A17 (LPV-resistant) ; cell line: MT-4 ; read by: cytopathic effect / MTT ; result: 0.0025 µM
COCn1c(Cc2cccc3ccccc23)c(C)c(=O)[nH]c1=O ; strain: LAV ; cell line: CEM ; result: 2.483 µM
CC(C)CN(C[C@@H](O)[C@H](Cc1ccccc1)NC(=O)OCC1CCOC1)S(=O)(=O)c1ccc(F)cc1 ; strain: IIIB ; cell line: CEM ; read by: p24 ; result: <1 µM
Cc1cc(C)cc(S(=O)(=O)c2c(C(=O)NS(=O)(=O)c3ccccc3)[nH]c3ccc(Cl)cc23)c1 ; mutations: K103N ; cell line: MT-4 ; read by: MTT ; result: 3.43 µM